Test [1] addresses T1, Recombinant full length HA of H3 A/Perth/16/09 (H3-PE09) (influenza A virus A/Perth/16/09 (H3N2)).
In test [2] the target is T1, Recombinant full length HA of H3 …. The test is described as follows: BLI (Octet RED96), IgG1, recombinant HA. (BLI is a label-free optical method that tracks binding on a fibre tip over time.)

Read-outs that look alike come from different tables or passages of the source.

B1: 3I14 VLD94N IgG1 (antibody, V domains shown)
VH: QVQLLESGGGVVQPGRSLRLSCAASGFTFSNYGMHWVRQAPGKGLEWVAIISFDGSKKYYANSVKGRSTISRDNSKNTLSLQMNSLGPEDTALYYCAKLPSPYYFDSRFVWVAASAFHFWGQGILVTVSS
VL: NFMLTQPPSASGTPGQRVTISCSGSSSNIGGNTVHWFQQLPGTAPKLLIYTNSLRPSGVPDRFSGSKSGTSASLAISGLQSEDEADYYCAAWDNSLNGQVFGGGTKLTVL
For orientation: koff means a measure of how fast the partners let go of each other. As a reminder, the kon is a measure of how fast the partners come together. As for B1, in test [1], the dissociation rate constant (koff) was found to be 0.000173 s⁻¹ and the on-rate (kon) came out at 74100 M⁻¹ s⁻¹. Besides, in test [2], the koff is 5.44e-05 s⁻¹ and the kon was 177000 M⁻¹ s⁻¹.

For the origin of these results see patent US12076390 (Dana-Farber, dated 2024).
